The source of these data is publication PMC12406681 (Antimicrobial Agents and Chemotherapy, 2025).

Experiment [1] has as its system LACV. As to conditions: cited from earlier work.
Experiment [2] deals with LACV. Description: CPE-based antiviral activity assay (MTT) in Vero cells. As to conditions: EC50 ratio, original stock virus. Format: cell-based, La Crosse virus.
Experiment [3] relates to LACV. Description: CPE-based antiviral activity assay (MTT) in SH-SY5Y cells. Format: cell-based, La Crosse virus. The following applies: EC50 ratio, original stock virus.
The subject of experiment [4] is LACV passage control WT. The experiment in a line: CPE-based antiviral activity assay in Vero cells, passage control WT. It counts as cell-based, La Crosse virus. As to conditions: EC50 ratio.
Experiment [5] relates to LACV. The experiment in a line: Time-of-addition assay in Vero cells (qRT-PCR). It counts as cell-based, La Crosse virus. As to conditions: 8 hpi, antibody 3 µg/mL, T-705 200 µM, CAPCA-1 10 µM. (Real-time PCR tracks product formation cycle by cycle.)
Experiment [6] relates to LACV passage control WT. As to conditions: EC50 ratio, SH-SY5Y cells.
Experiment [7] concerns LACV. Description: LACV footpad infection mouse model. As to conditions: 60 mg/kg/day s.c. q.d., 6 dpi.
The subject of experiment [8] is LACV. Description: Viral titer reduction assay in Vero cells (plaque assay). As to conditions: MOI 0.01, plaque assay at 32 hpi.
The test system of experiment [9] is LACV. The experiment in a line: Immunofluorescence assay for LACV Gc protein in Vero cells. As to conditions: MOI 0.01, 32 hpi.
Experiment [10] relates to LACV. Description: Viral titer reduction assay in SH-SY5Y cells (plaque assay). The following applies: MOI 0.001, plaque assay at 48 hpi.
Experiment [11] has as its system LACV. Description: Lethal LACV infection mouse model, intraperitoneal infection.

Where two headings read alike, the source gives them in different places.

As for `CC(=O)c1c(O)c(C)c(O)c(Cc2c(O)c3c(c(C(=O)/C=C/c4ccccc4)c2O)OC(C)(C)C=C3)c1O`, the “Incidence of neurological disease in LACV-infected mice” value in the experiment with LACV [1] is on record as “decreased the incidence of neurological disease”.

As to `CC(C)C(=O)OC[C@H]1O[C@@H](n2ccc(NO)nc2=O)[C@H](O)[C@@H]1O`, the “Incidence of neurological disease in LACV-infected mice” value in the experiment on LACV [1] is on record as “decreased the incidence of neurological disease”.

Consider `CC(C)N1CN(C2c3ccccc3CCc3ccccc32)n2cc(C(=O)O)c(=O)c(O)c2C1=O` [CAPCA-1, carbamoyl pyridone carboxylic acid (CAPCA)-1], for which the “Fold change (/original stock)” value is listed as 1.00 in the experiment with LACV [2], 1.00 in the experiment with LACV [3], 1.84 with LACV passage control WT [4] and 0.68 with LACV passage control WT [6]. For the same compound, the “Fold change (/passage control)” value was found to be 0.54 in the experiment on LACV [2], 1.46 with LACV [3], 1.00 in the experiment with LACV passage control WT [4] and 1.00 in the experiment on LACV passage control WT [6]. Besides, the “Viral RNA levels, post-entry treatment” value with LACV [5] is recorded as “significantly reduced the viral RNA levels”. In addition, the “Viral RNA in the blood” value in the experiment with LACV [7] is listed as “tended to be lower”. Moreover, the “Viral RNA levels in the brain” value in the experiment on LACV [7] is “significant reduction of viral RNA levels”. The “Viral RNA levels in the spleen” value was “significant reduction of viral RNA levels” in the experiment with LACV [7]; “significantly reduced viral RNA levels” in the experiment on LACV [11] (60 mg/kg/day s.c., 6 and 7 dpi). Besides, the “Infectious virus titers in the culture supernatant” value with LACV [8] is “dose-dependent reduction in infectious virus titers”. Further, the “Number of LACV Gc protein-positive cells” value in the experiment on LACV [9] is “reduced the number of LACV Gc protein-positive cells at lower concentrations compared to treatment with either T-705 or RBV”. Moreover, in the experiment on LACV [10], the “Viral growth (viral titers in the supernatants)” value was “reduced the LACV-induced CPE and viral growth in SH-SY5Y”. For the same compound, the “Mice rescued from lethal infection” value in the experiment with LACV [11] (30 mg/kg/day s.c. q.d. until 7 dpi, LACV i.p.) was 20%; with LACV [11] (60 mg/kg/day s.c. q.d. until 7 dpi, LACV i.p.), 31%. In the experiment on LACV [11] (60 mg/kg s.c., 6 and 7 dpi, plaque assay, versus vehicle), the “Viral titers in the brain” value is on record as “lower, although not significantly”. Moreover, the “Viral RNA in the brain” value in the experiment on LACV [11] (60 mg/kg/day s.c., 6 and 7 dpi, versus vehicle) is recorded as “significantly lower levels of viral RNA in the brain”. Further, the “Viral RNA levels in the blood” value with LACV [11] (60 mg/kg/day s.c., 6 dpi) is recorded as “significantly reduced viral RNA levels”; in the experiment on LACV [11] (60 mg/kg/day s.c., 7 dpi) it was “non-significant reduction in viral RNA levels”. Moreover, in the experiment on LACV [11] (3, 10, 30, or 60 mg/kg/day s.c. q.d. from 4 h before infection until 7 dpi, LACV i.p.), the “Survival of LACV-infected mice” value is listed as “significantly extended the survival”.

As for `NC(=O)c1ncn([C@@H]2O[C@H](CO)[C@@H](O)[C@H]2O)n1` [RBV, Ribavirin, reference compound], the “Efficacy in the in vivo infection model” value in the experiment with LACV [1] is listed as “efficacy is limited in the in vivo infection model”. Besides, the “Infectious virus titers in the culture supernatant” value in the experiment with LACV [8] is given as “significantly reduced viral titers”. Moreover, the “Viral growth (viral titers in the supernatants)” value in the experiment with LACV [10] is on record as “significantly reduced viral titers”.

For `NC(=O)c1nc(F)c[nH]c1=O` [T-705, favipiravir, reference compound], the “Fold change (/original stock)” value was 1.00 in the experiment with LACV [2] and 1.16 in the experiment with LACV passage control WT [4]. The “Fold change (/passage control)” value with LACV [2] stood at 0.86; with LACV passage control WT [4], 1.00. The “Viral RNA levels, post-entry treatment” value in the experiment with LACV [5] is “significantly reduced the viral RNA levels”. The “Efficacy against LACV in animal models” value in the experiment with LACV [1] is recorded as “limited in animal models”.
